Data taken from patent US10253035B2 (priority 2016, dated 2019).

Test system: Mtb K204
Conditions: compound in combination with KAN

CN(c1ccc2ccccc2c1)S(=O)(=O)c1ccc2[nH]c(=O)c(=O)[nH]c2c1 [Compound 46]
effect on KAN resistance of Mtb K204 (in words): completely cancelling the effect of the Eis upregulation
